Pooled drug test results. Numbers come from NIAID ChemDB, via PubChem.

Shared fields: cytotoxicity tests; cell line: MDCK; measure: CC50

Rows are shuffled and stem from different studies. An empty or dashed field is not shown. a–b is a range or a potency band. CCn is the concentration with n% toxicity to the cells.

smiles | method | value
Nc1ncnc2c1ncn2[C@@H]1C[C@@H](O)[C@H](CO)O1 | - | >100 µM
O=C1C[C@@H](c2ccc(O)cc2)Oc2cc(O)c(-c3c(O)cc4c(c3O)C(=O)C[C@@H](c3ccc(O)cc3)O4)c(O)c21 | neutral red | 5 µg/mL
CC(=O)O[C@H]1C[C@](C)(C(=O)O)CC2C3=CC(=O)C4[C@@]5(C)CC[C@H](O[C@@H]6O[C@H](C(=O)O)[C@@H](O)[C@H](O)[C@H]6O[C@@H]6O[C@H](C(=O)O)[C@@H](O)[C@H](O)[C@H]6O)C(C)(C)C5CC[C@@]4(C)[C@]3(C)CC[C@]21C | ATP | >100 µM
NC(=O)c1nc(F)c[nH]c1=O | - | >1000 µg/mL
COc1cc(Cl)nc(NC(=S)NC(=O)c2ccc(Cl)nc2)n1 | MTS | >300 µM
CC(N)C12CC3CC(CC(C3)C1)C2 | - | 1160 µM
CC#Cc1cn([C@@H]2O[C@H](COP(=O)(O)OCC)[C@@H](O)[C@@H]2O)c(=O)[nH]c1=O | - | >250 µM
COc1cc(NC(=O)Nc2cccc(CNC(=O)O[C@H]3CCOC3)c2)ccc1-c1cnco1 | MTT | 4.8 µM
Cc1cc(=O)[nH]c(NC(=S)NC(=O)c2ccc(-c3ccc([N+](=O)[O-])cc3)o2)n1 | MTS | >300 µM
O=c1cc(-c2ccc(Oc3c(O)cc4oc(-c5ccc(O)cc5)cc(=O)c4c3O)cc2)oc2cc(O)cc(O)c12 | neutral red | 2 µg/mL
CC1(C)C2CC[C@]3(C)C(C(=O)C=C4C5C[C@@](C)(C(=O)O)CC[C@]5(C)CC[C@]43C)[C@@]2(C)CC[C@@H]1O | ATP | >100 µM
Nc1ncnc2c1ncn2[C@@H]1C[C@@H](O)[C@H](CO)O1 | - | >100 µM
CC#Cc1cn([C@@H]2O[C@H](CO)[C@@H](O)[C@@H]2O)c(=O)[nH]c1=O | - | >500 µM
CC(N)C12CC3CC(CC(C3)C1)C2 | - | 10–4000 µM
CC#Cc1cn([C@@H]2O[C@H](COP(=O)(O)OCC(F)(F)F)[C@@H](O)[C@@H]2O)c(=O)[nH]c1=O | - | >250 µM
CC(C)(C)NC(=O)NC(=S)NC(=O)c1ccccc1 | MTS | >300 µM
C[C@@H](O)C1=C[C@@H](n2cnc3c(N)ncnc32)[C@H](O)[C@@H]1O | MTT / neutral red | 7.3 µg/mL
CCCN(CCC)c1c([N+](=O)[O-])cc(C(F)(F)F)cc1[N+](=O)[O-] | - | >5 µM
NC(=O)c1nc(F)c[nH]c1=O | - | >6370 µM
CCCN(CCC)c1c([N+](=O)[O-])cc(C(F)(F)F)cc1[N+](=O)[O-] | - | >10 µM
COc1cc(O)c(CC=C(C)C)c(O)c1C(=O)/C=C/c1ccc(O)cc1 | - | 6.5 µg/mL
CC#Cc1cn([C@@H]2O[C@H](COP(=O)(O)Oc3ccccc3)[C@@H](O)[C@@H]2O)c(=O)[nH]c1=O | - | >500 µM
CCOC(=O)C1=C[C@@H](OC2CCCCC2)[C@H](NC(C)=O)[C@@H](N)C1 | MTS | >100 µM
CC#Cc1cn([C@@H]2O[C@H](COP(=O)(O)Oc3cccc(Cl)c3)[C@@H](O)[C@@H]2O)c(=O)[nH]c1=O | - | 79 µM
O=C(NCCc1c[nH]c2ccccc12)C1=Cc2ccncc2CC1 | - | 46 µM

For reference, 2 entries again:

COc1cc(O)c(CC=C(C)C)c(O)c1C(=O)/C=C/c1ccc(O)cc1 ; value: 6.5 µg/mL
O=C1C[C@@H](c2ccc(O)cc2)Oc2cc(O)c(-c3c(O)cc4c(c3O)C(=O)C[C@@H](c3ccc(O)cc3)O4)c(O)c21 ; method: neutral red ; value: 5 µg/mL